Literature values in article PMC5543128.

Tested on: nicotinic receptor of skeletal muscles
Conditions: cited from earlier work

For `CC[C@H](C)[C@H](NC(=O)CNC(=O)[C@H](Cc1ccc(O)cc1)NC(=O)[C@@H](N)[C@@H](C)O)C(=O)N[C@@H](Cc1ccc(O)cc1)C(=O)N[C@@H](CC(=O)O)C(=O)N[C@@H](C)C(=O)N[C@@H](CCCCN)C(=O)N1CCC[C@H]1C(=O)N1C[C@H](O)C[C@H]1C(=O)N[C@@H](Cc1ccccc1)C(=O)N[C@@H](CO)C(=O)N[C@H]1CSSC[C@@H](C(=O)N[C@H](C(=O)N[C@@H](CC(C)C)C(=O)N2CCC[C@H]2C(=O)N2C[C@H](O)C[C@H]2C(=O)N[C@@H](CC(N)=O)C(=O)N[C@@H](CC(C)C)C(=O)N[C@@H](CCCNC(=N)N)C(=O)N2C[C@H](O)C[C@H]2C(=O)N[C@@H](CCCCN)C(=O)N[C@@H](Cc2ccccc2)C(=O)N[C@@H](CCCCN)C(=O)N[C@@H](CCC(=O)O)C(N)=O)C(C)C)NC(=O)CNC(=O)CNC(=O)[C@H](CCCNC(=N)N)NC(=O)[C@H](CC(C)C)NC(=O)CNC(=O)[C@H](C)NC1=O`, the potency and selectivity is given as “highly potent and selective for the nicotinic receptor of skeletal muscles”.

Only a part of the results on these compounds is given; other tests are left out.
